Earlier results on one molecule are cited in PMC2907105 (Biochemistry, 2010).

Sequences of proteins named here, by UniProt entry; tags and fusion partners are left off.
UniProt P04775, whole entry, looked up: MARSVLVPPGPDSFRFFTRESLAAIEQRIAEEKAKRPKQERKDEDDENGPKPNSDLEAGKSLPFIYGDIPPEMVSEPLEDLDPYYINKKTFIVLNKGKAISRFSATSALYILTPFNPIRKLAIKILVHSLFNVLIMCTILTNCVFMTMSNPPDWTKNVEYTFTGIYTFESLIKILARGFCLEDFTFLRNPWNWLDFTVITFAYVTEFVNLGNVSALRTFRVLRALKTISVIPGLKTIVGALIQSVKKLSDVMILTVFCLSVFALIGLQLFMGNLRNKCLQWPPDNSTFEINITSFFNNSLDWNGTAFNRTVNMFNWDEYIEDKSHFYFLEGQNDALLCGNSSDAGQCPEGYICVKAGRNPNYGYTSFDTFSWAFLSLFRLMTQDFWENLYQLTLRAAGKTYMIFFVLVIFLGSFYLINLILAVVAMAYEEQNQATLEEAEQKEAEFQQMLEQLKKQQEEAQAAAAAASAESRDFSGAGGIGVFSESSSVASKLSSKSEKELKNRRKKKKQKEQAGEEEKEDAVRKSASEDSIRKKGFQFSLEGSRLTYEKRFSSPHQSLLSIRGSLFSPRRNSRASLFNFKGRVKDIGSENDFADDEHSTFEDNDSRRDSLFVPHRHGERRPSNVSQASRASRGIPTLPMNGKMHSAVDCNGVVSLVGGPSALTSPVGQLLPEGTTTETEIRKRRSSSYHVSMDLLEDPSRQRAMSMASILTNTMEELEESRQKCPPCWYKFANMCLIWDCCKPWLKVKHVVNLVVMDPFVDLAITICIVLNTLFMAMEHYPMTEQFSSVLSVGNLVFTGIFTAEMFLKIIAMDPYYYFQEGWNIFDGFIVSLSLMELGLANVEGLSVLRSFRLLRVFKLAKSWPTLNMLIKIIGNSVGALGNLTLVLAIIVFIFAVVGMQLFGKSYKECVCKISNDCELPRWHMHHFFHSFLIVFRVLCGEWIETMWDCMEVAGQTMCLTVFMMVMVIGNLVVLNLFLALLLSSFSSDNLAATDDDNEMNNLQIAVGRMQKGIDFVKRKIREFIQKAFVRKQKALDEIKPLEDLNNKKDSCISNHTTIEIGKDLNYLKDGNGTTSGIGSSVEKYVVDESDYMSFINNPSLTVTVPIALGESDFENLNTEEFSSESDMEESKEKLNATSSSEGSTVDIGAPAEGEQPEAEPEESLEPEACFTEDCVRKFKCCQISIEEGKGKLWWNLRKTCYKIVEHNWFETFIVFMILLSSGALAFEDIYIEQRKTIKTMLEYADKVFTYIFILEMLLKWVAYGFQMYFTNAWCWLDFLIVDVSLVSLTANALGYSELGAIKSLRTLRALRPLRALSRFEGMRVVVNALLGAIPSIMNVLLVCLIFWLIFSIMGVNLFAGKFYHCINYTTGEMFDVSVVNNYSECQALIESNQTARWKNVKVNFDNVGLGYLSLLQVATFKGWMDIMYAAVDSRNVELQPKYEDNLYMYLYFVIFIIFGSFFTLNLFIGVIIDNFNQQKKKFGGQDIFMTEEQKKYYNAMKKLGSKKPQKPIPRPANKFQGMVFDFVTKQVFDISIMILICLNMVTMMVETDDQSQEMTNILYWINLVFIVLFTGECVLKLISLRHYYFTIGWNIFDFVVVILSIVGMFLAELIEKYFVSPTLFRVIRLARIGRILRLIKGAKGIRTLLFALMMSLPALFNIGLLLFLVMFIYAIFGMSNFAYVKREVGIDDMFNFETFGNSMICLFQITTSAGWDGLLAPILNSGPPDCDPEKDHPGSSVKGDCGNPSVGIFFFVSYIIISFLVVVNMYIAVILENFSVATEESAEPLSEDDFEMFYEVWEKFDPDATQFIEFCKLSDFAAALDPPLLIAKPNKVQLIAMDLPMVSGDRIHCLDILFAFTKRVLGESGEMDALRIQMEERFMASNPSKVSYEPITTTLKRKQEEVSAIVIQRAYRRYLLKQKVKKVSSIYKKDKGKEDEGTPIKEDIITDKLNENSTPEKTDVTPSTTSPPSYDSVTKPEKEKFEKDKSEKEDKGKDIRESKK

In the data set the target is rat NaV1.2 (Rattus norvegicus, UniProt P04775).

Turning to `NC1=N[C@H](O)[C@H]2[C@H]3O[C@]4(O)O[C@@H]([C@@H](O)[C@@]2(N1)[C@@H]4O)[C@]3(O)CO` [TTX, tetrodotoxin], the dissociation constant (Kd) was 38 ± 6 nM.
